Anti-infective test results gathered from many reports (values: NIAID ChemDB through PubChem).

Shared fields: host cell toxicity; read-out: CC50

CCn: concentration that lowers growth or viability of the cells by n%.

compound | cells | method | value
c1ccc(C2CC3(N4CCCCC4)CC(NCCCN4CCCC4)C2C(c2ccccc2)C3)cc1 | Rat skeletal myoblasts |  | 26.99 µM
CN(C)C(=O)c1ccc2ncnc(Nc3ccc(N4CCOCC4)cc3)c2c1 | HUH 9B |  | >25 µM
C[C@H]1COc2c(N3CCC4(CC3)OCCO4)c(F)cc3c(=O)c(C(=O)O)cn1c23 | Mammalian Vero cells | MTT | 155 µM
FC(F)(F)c1cc(N2CCOCC2)ccc1Nc1ncnc2ccc(I)cc12 | HUH 9B |  | >25 µM
CN(C)C(=S)Nc1cccc(OCCCCCOc2ccc(-c3ccccc3)cc2)c1 | Ava5-EG(delta4AB)SEAP | MTS | >1 µM
O=c1sc2nc3c(c(=S)n2/c1=C/c1ccc(Cl)cc1)C1=C(CCC/C1=C\c1ccncc1)C(c1ccncc1)S3 | KB | MTT | 34.1 µM
C[C@@]1(O)[C@H](O)[C@@H](COP(=O)(O)OP(=O)(O)OP(=O)(O)O)O[C@H]1n1ccc2c(N)ncnc21 | MA-104 |  | >320 µM
CN1CCN(CC(=O)NC2CC3(N4CCCCC4)CC(c4ccccc4)C2C(c2ccccc2)C3)CC1 | Rat skeletal myoblasts |  | 57.52 µM
c1csc(-c2ccc3ncnc(Nc4ccc(N5CCOCC5)cc4)c3c2)c1 | HUH 9B |  | >25 µM
COCCCNC(=S)Nc1ccc2c(c1)Cc1cc(Br)ccc1-2 | Ava5-EG(delta4AB)SEAP | MTS | >1 µM
CSc1nsc(-c2ccc(OC(C)(C)C)cc2)c1C#N | L929 |  | >50 µM
COc1cc(Nc2ncnc3ccc(I)cc23)ccc1N1CCOCC1 | HUH 9B |  | 10–25 µM
CSc1nsc(-c2ccc(O)cc2)c1C#N | L929 |  | 2 µM
Nc1c2c(nc(=S)n1-c1ccccc1)SC(c1ccncc1)C1=C2/C(=C/c2ccncc2)CCC1 | MGC-803 | MTT | 14.8 µM
CC(CCOc1ccccc1)CCOc1cccc(NC(N)=S)c1 | Ava5-EG(delta4AB)SEAP | MTS | >1 µM
[O-][n+]1onc2c(N3CC[N+]4(CC3)CC[N+]3(CCN(c5ncnc6no[n+]([O-])c56)CC3)CC4)ncnc21 | L929 |  | >351.2 µg/mL
CC1COc2c(N3CCN(C)C(c4ccccc4)C3)c(F)c([N+](=O)[O-])c3c(=O)c(C(=O)O)cn1c23 | Vero mammalian cells | MTT | 130 µM
CC/C=C\C/C=C\C/C=C\C/C=C\C/C=C\CCCC(=O)O[C@@H]1[C@@H](C)[C@@]2(O)[C@@H](C=C(CO)C[C@]3(O)C(=O)C(C)=C[C@@H]23)[C@@H]2C(C)(C)[C@]12OC(=O)CCC | C8166 | MTT | 23.3 µM
CCO/C=N\C1=C(C#N)C2=C(CCC/C2=C\c2ccncc2)C(c2ccncc2)S1 | CNE-2 | MTT | 49.4 µM
CNC(=O)c1ccc2ncnc(Nc3ccc(N4CCOCC4)cc3)c2c1 | HUH 9B |  | >25 µM
CC/C=C\C/C=C\C/C=C\C/C=C\C/C=C\C/C=C\CCC(=O)O[C@@H]1[C@@H](C)[C@@]2(O)[C@@H](C=C(CO)C[C@]3(O)C(=O)C(C)=C[C@@H]23)[C@@H]2C(C)(C)[C@]12O | C8166 | MTT | 46.3 µM
COc1cc2c(cc1OC)CN(c1c(F)c([N+](=O)[O-])c3c(=O)c(C(=O)O)cn4c3c1OCC4C)CC2 | Mammalian Vero cells | MTT | 62.5 µM
NC(=S)Nc1cccc(OCCCCCOc2ccc(N3CCCC3)cc2)c1 | Ava5-EG(delta4AB)SEAP | MTS | >1 µM
Clc1nnnc2c1C1=C(CCC/C1=C\c1ccncc1)C(c1ccncc1)S2 | MGC-803 | MTT | 12.4 µM
CC1CN(c2c(F)cc3c(=O)c(C(=O)O)cn4c3c2OC[C@@H]4C)CC(C)O1 | Mammalian Vero cells | MTT | >166 µM
COc1ccc(CNC(=O)c2ccc3ncnc(Nc4ccc(N5CCOCC5)cc4)c3c2)cc1 | HUH 9B |  | >25 µM
CSc1nsc(-c2ccccc2)c1C#N | L929 |  | 20 µM
O=[N+]([O-])c1c(Cl)nc(C(F)(F)F)nc1N1CC[N+]2(CC1)CC[N+]1(CCN(c3nc(C(F)(F)F)nc(Cl)c3[N+](=O)[O-])CC1)CC2 | K562 |  | >261 µg/mL
Clc1ccc([C@@H](CCn2ccnc2)Oc2ccccc2Cl)cc1 | Human histiocytic lymphoma U937 cells |  | 327 µM
CC(C)C[C@H]1NC(=O)[C@H](C)NC(=O)[C@H](Cc2c[nH]c3ccccc23)NC(=O)[C@@H](CCCN)NC(=O)[C@H](CC(N)=O)NC(=O)[C@H](C(C)C)NC1=O | Hep2G | luminescence | >100 µM
CN1CCN(CCCN2CC3(N4CCCCC4)CC(c4ccccc4)C2C(c2ccccc2)C3)CC1 | Rat skeletal myoblasts |  | 62.45 µM
NC(=S)Nc1cccc(OCCCc2ccccc2)c1 | Ava5-EG(delta4AB)SEAP | MTS | >1 µM
CCC(C)C1NC(=O)[C@H](Cc2c[nH]c3ccccc23)NC(=O)[C@@H](CCCN)NC(=O)[C@H](CC(N)=O)NC(=O)[C@H](C(C)C)NC(=O)[C@@H](CC(C)C)NC1=O | Hep2G | luminescence | >100 µM
OCc1ccc(-c2ccc3ncnc(Nc4ccc(N5CCOCC5)cc4)c3c2)o1 | HUH 9B |  | >25 µM
Cc1nc(Cl)c([N+](=O)[O-])c(N2CC[N+]3(CC2)CC[N+]2(CCN(c4nc(C)nc(Cl)c4[N+](=O)[O-])CC2)CC3)n1 | GMK |  | >720 µg/mL
CC1CN(c2c(F)c([N+](=O)[O-])c3c(=O)c(C(=O)O)cn4c3c2OCC4C)CC(C)O1 | Vero mammalian cells | MTT | 148 µM
O=C(Nc1ccc(-c2ccc3ncnc(Nc4ccc(N5CCOCC5)cc4)c3c2)cc1)OCc1ccccc1 | HUH 9B |  | >25 µM
Cc1cc(Cl)c(OCCCCCOc2cccc(NC(N)=S)c2)c(Cl)c1 | Ava5-EG(delta4AB)SEAP | MTS | >1 µM
Cc1nc2c(c(=N)n1Nc1ccccc1)C1=C(CCC/C1=C\c1ccncc1)C(c1ccncc1)S2 | MGC-803 | MTT | 11.9 µM
CO[C@@H]1[C@H](N(C)C(=O)c2ccccc2)C[C@@]2(C)O[C@]1(C)n1c3ccccc3c3c4c(c5c6ccccc6n2c5c31)C(=O)NC4 | ACH2 | fluorescence | >5 µM
CC/C=C\C/C=C\C/C=C\C/C=C\C/C=C\C/C=C\CCC(=O)O[C@@H]1[C@@H](C)[C@@]2(O)[C@@H](C=C(CO)C[C@]3(O)C(=O)C(C)=C[C@@H]23)[C@@H]2C(C)(C)[C@]12OC(C)=O | C8166 | MTT | 44.12 µM
S=c1[nH]c2c(c(=S)[nH]1)C1=C(CCC/C1=C\c1ccncc1)C(c1ccncc1)S2 | KB | MTT | 13.7 µM
CC(C)C[C@@H]1NC(=O)[C@@H](CC(C)C)NC(=O)[C@@H](CCCN)NC(=O)[C@H](CC(N)=O)NC(=O)[C@H](C(C)C)NC(=O)[C@H](Cc2c[nH]c3ccccc23)NC1=O | Hep2G | luminescence | >100 µM
Cc1ccc(/C=c2\c(=O)sc3nc4c(c(=S)n23)C2=C(CCC/C2=C\c2ccncc2)C(c2ccncc2)S4)cc1 | MCF-7 | MTT | 36.5 µM
CN1CCN(CCCN2CC3(N4CCN(C)CC4)CC(c4ccccc4)C2C(c2ccccc2)C3)CC1 | Rat skeletal myoblasts |  | 47.75 µM
CC/C=C\C/C=C\C/C=C\C/C=C\C/C=C\C/C=C\CCC(=O)O[C@@H]1[C@@H](C)[C@@]2(O)[C@@H](C=C(COC(C)=O)C[C@]3(O)C(=O)C(C)=C[C@@H]23)[C@@H]2C(C)(C)[C@]12O | C8166 | MTT | 55.9 µM
CCO/C(C)=N\C1=C(C#N)C2=C(CCC/C2=C\c2ccncc2)C(c2ccncc2)S1 | CNE-2 | MTT | 47.9 µM
O=C(CCBr)N1CC[N+]2(CC1)CC[N+]1(CCN(C(=O)CCBr)CC1)CC2 | GMK |  | >883.1 µg/mL
CC(C)C[C@@H]1NC(=O)[C@H](Cc2c[nH]c3ccccc23)NC(=O)[C@@H](CCCN)NC(=O)[C@H](C)NC(=O)[C@H](C(C)C)NC(=O)[C@@H](CC(C)C)NC1=O | Hep2G | luminescence | >100 µM

Repeating the first 4 entries:

compound,cells,method,value
c1ccc(C2CC3(N4CCCCC4)CC(NCCCN4CCCC4)C2C(c2ccccc2)C3)cc1,Rat skeletal myoblasts,,26.99 µM
CN(C)C(=O)c1ccc2ncnc(Nc3ccc(N4CCOCC4)cc3)c2c1,HUH 9B,,>25 µM
C[C@H]1COc2c(N3CCC4(CC3)OCCO4)c(F)cc3c(=O)c(C(=O)O)cn1c23,Mammalian Vero cells,MTT,155 µM
FC(F)(F)c1cc(N2CCOCC2)ccc1Nc1ncnc2ccc(I)cc12,HUH 9B,,>25 µM

Neighbouring rows are from separate reports. An empty or dashed field is not shown. Two numbers with a dash give a range or band.